PubChem BioAssay AID624099 | ICCB-Longwood, 2012
In all, the deposit lists about 21,000 reagents; below is a random part of them. 497 of all reagents (2.4%) were called active. 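Higher z means weaker E2 silencing; only reporter increases were scored, and knock-downs that hurt cell survival may mask genuine repressor factors.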 Reagents against one gene are numbered here. Reagent sequences are not shown.

Purpose: 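Host factors E2 relies on to silence an HPV18 LCR reporter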 (primary screen)
Cell system: human C33A cervical carcinoma cells (HPV-negative) stably expressing BPV1 E2 and an HPV18 LCR luciferase reporter
Reagents: siRNA pool against human genes, 40 nM
Timing: 72 h
Measurement: 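Per-well luciferase luminescence, z-scored on each plate against the plate mean and SD with control wells left out, then averaged across three replicate plates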
Reading the numbers: mean z-score and z-score: higher = stronger reporter signal, weaker E2 silencing
Call rule: 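Hit if mean z-score reaches 2 and two or more of three replicate z-scores also reach 2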

target gene,pool no.,mean z-score,"z-score, replicate A","z-score, replicate B","z-score, replicate C",Call
RDH14 (GeneID 57665),1,0.95,0.97,1.02,0.87,inactive
PXDNL (GeneID 137902),1,-0.66,-0.81,-0.5,-0.66,inactive
NR5A2 (GeneID 2494),1,-0.33,-0.03,-0.48,-0.47,inactive
WWTR1 (GeneID 25937),1,0.97,1.09,0.66,1.15,inactive
CHRNB2 (GeneID 1141),1,-0.15,0,-0.13,-0.31,inactive
FGF4 (GeneID 2249),1,-0.14,-0.02,-0.04,-0.35,inactive
SH3D19 (GeneID 152503),1,-0.1,-0.23,0.01,-0.08,inactive
ATXN7L1 (GeneID 222255),1,0.07,-0.07,0.04,0.23,inactive
ATXN7L1 (GeneID 222255),2,0.53,0.47,0.48,0.65,inactive
HRH3 (GeneID 11255),1,0.06,0.13,0.06,-0.02,inactive
FAM178B (GeneID 51252),1,-0.76,-0.36,-1.12,-0.79,inactive
PLA2G2D (GeneID 26279),1,-0.1,-0.12,0.08,-0.25,inactive
PIK3R3 (GeneID 8503),1,-1.54,-1.78,-1.38,-1.46,inactive
SLC45A3 (GeneID 85414),1,-0.45,-0.3,-0.89,-0.17,inactive
RBM17 (GeneID 84991),1,0.53,0.12,0.78,0.69,inactive
LIN52 (GeneID 91750),1,1.64,1.35,1.78,1.8,inactive
FABP5P1 (GeneID 387934),1,0.04,-0.07,0.27,-0.08,inactive
LOC344165 (retired record) (GeneID 344165),1,0.12,0.07,0.07,0.22,inactive
LOC401581 (retired record) (GeneID 401581),1,0.79,0.55,1.32,0.5,inactive
ANK2 (GeneID 287),1,-0.19,-0.24,-0.13,-0.19,inactive
ZNF793 (GeneID 390927),1,0.62,0.74,0.52,0.6,inactive
OR4S1 (GeneID 256148),1,-0.36,-0.63,-0.16,-0.28,inactive
LOC399898 (retired record) (GeneID 399898),1,0.44,0.63,0.38,0.3,inactive
DDA1 (GeneID 79016),1,1.19,1.5,0.9,1.18,inactive
NLRP10 (GeneID 338322),1,0.18,-0.2,0.36,0.4,inactive
ADAM7 (GeneID 8756),1,1.98,1.87,2,2.06,inactive
SEMA5B (GeneID 54437),1,0.27,0.26,0.4,0.16,inactive
LRRC8C (GeneID 84230),1,0.1,-0.06,0,0.37,inactive
LOC389167 (retired record) (GeneID 389167),1,-0.75,-0.38,-1.11,-0.75,inactive
CHCHD1 (GeneID 118487),1,-0.37,-0.1,-0.55,-0.47,inactive
RDH10 (GeneID 157506),1,-1.07,-1.38,-0.61,-1.22,inactive
RPL23P5 (GeneID 402120),1,-0.06,0.06,0.19,-0.44,inactive
ATG12 (GeneID 9140),1,3.15,3.09,3.12,3.24,active

Reformatted: entries from further up.
| target gene | pool no. | mean z-score | z-score, replicate A | z-score, replicate B | z-score, replicate C | Call |
| --- | --- | --- | --- | --- | --- | --- |
| SH3D19 (GeneID 152503) | 1 | -0.1 | -0.23 | 0.01 | -0.08 | inactive |
| ATXN7L1 (GeneID 222255) | 1 | 0.07 | -0.07 | 0.04 | 0.23 | inactive |
| ATXN7L1 (GeneID 222255) | 2 | 0.53 | 0.47 | 0.48 | 0.65 | inactive |
| HRH3 (GeneID 11255) | 1 | 0.06 | 0.13 | 0.06 | -0.02 | inactive |
| FAM178B (GeneID 51252) | 1 | -0.76 | -0.36 | -1.12 | -0.79 | inactive |
| PLA2G2D (GeneID 26279) | 1 | -0.1 | -0.12 | 0.08 | -0.25 | inactive |

Additional records follow:
target gene,pool no.,mean z-score,"z-score, replicate A","z-score, replicate B","z-score, replicate C",Call
PTPN6 (GeneID 5777),1,1.54,1.01,1.95,1.67,inactive
UBE2DNL (GeneID 100131816),1,0.36,0.09,0.46,0.52,inactive
REPS1 (GeneID 85021),1,-0.66,-0.38,-0.91,-0.7,inactive
RSPH14 (GeneID 27156),1,0.17,0.08,0,0.42,inactive
GDF5 (GeneID 8200),1,0.42,0.37,0.09,0.79,inactive
IFT74 (GeneID 80173),1,0.49,0.64,0.59,0.23,inactive
PDZRN4 (GeneID 29951),1,-0.05,-0.32,0,0.18,inactive
SELPLG (GeneID 6404),1,-0.64,-0.37,-0.73,-0.82,inactive
GPER1 (GeneID 2852),1,1.11,1.26,1.41,0.66,inactive
NFKB1 (GeneID 4790),1,0.05,0.31,0,-0.14,inactive
IGHM (GeneID 3507),1,1.64,1.76,1.4,1.76,inactive
ADAMTS14 (GeneID 140766),1,-0.19,-0.11,-0.12,-0.35,inactive
CBLC (GeneID 23624),1,0.64,0.37,0.62,0.94,inactive
RMDN3 (GeneID 55177),1,0.94,0.69,0.82,1.32,inactive
KLHL2 (GeneID 11275),1,1.21,1.37,1.54,0.74,inactive
ZNF385B (GeneID 151126),1,-0.78,-0.86,-0.68,-0.81,inactive
RALGPS2 (GeneID 55103),1,-0.06,0.04,-0.17,-0.05,inactive
SFI1 (GeneID 9814),1,0.35,0.48,0.42,0.15,inactive
TMEM61 (GeneID 199964),1,-0.62,-0.24,-0.93,-0.7,inactive
GARIN3 (GeneID 153745),1,1.37,1.49,0.43,2.2,inactive
HMGXB4 (GeneID 10042),1,1.68,2.25,1.39,1.41,inactive
PRDX3 (GeneID 10935),1,0.79,1.02,0.72,0.64,inactive
CA10 (GeneID 56934),1,0.58,0.28,0.75,0.7,inactive
SNIP1 (GeneID 79753),1,1.29,1,1.48,1.38,inactive
